## Fitness effects across NS2B and the NS3 protease domain of Zika virus

Reference: Ni et al. 2025, doi:10.1038/s41467-025-63602-z.

Protein: NS2B and the protease part of NS3 of Zika virus strain MR766. Positions count along the chain below; NS2B spans 2-131 and NS3 starts at 132.
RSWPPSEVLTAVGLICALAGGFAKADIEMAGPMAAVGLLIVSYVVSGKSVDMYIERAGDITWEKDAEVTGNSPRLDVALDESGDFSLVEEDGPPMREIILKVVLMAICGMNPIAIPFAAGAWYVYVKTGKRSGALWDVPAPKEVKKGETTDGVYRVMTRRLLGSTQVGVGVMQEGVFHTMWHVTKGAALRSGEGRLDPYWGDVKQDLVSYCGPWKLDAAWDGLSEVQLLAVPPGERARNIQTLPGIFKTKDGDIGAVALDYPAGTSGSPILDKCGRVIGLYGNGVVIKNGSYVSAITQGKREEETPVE

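Libraries of single mutants were passaged as virus pools on Huh-7.5 cells. Deep sequencing gave the change in frequency of each mutant relative to wild type, averaged over three replicate libraries (two for positions 207-308). The aim was to find sites where inhibitor-binding pockets cannot change.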

Scale: log2 effect, wild type = 0; the lower, the more harmful to the virus. Substitutions are written as wild-type residue, site number, new residue. This list holds changes to tyrosine only. The region was split into three libraries (1-103, 104-206, 207-308). Six mutants with high scores were retested singly and none clearly outgrew wild type, so positive values are not proof of better growth. The authors count -1 or higher as tolerated. Position 1 is the last residue of NS2A.

G212Y gave -6.41. P213Y read -0.69. With W214Y the assay gave -7.02. With K215Y the assay gave -6.35. For L216Y the result was -6.87. With D217Y the assay gave -6.55. For A218Y the result was -4.75. With A219Y the assay gave -0.71.

W220Y gave -3.26. D221Y read -6.82. With G222Y the assay gave -0.26. With L223Y the assay gave -0.26. With S224Y the assay gave -5.74. For E225Y the result was -4.14. For V226Y the result was -5.32. With Q227Y the assay gave -5.36.

For L228Y the result was -4.76. L229Y gave -0.50. For A230Y the result was -4.12. V231Y gave -2.57. With P232Y the assay gave -4.64. With P233Y the assay gave -5.53. G234Y gave -3.77. E235Y read -5.66.

For R236Y the result was 1.45. For A237Y the result was -0.39. For R238Y the result was -2.84. N239Y read -5.16. I240Y gave -6.87. Q241Y gave -5.99. With T242Y the assay gave -5.22. L243Y read -0.76.

P244Y gave -4.48. G245Y read -5.18. With I246Y the assay gave -0.19. With F247Y the assay gave -5.57. With K248Y the assay gave -2.07. T249Y gave -5.38. K250Y gave -6.04. D251Y read -5.61.

G252Y read -2.90. With D253Y the assay gave -5.63. For I254Y the result was -6.42. With G255Y the assay gave -6.66. For A256Y the result was -5.73. For V257Y the result was -4.57.

Extract of 3 entries:

- K215Y: -6.35
- L243Y: -0.76
- G222Y: -0.26